Experimental findings from PMC12305662, “Fragment-Based Development of Small Molecule Inhibitors Targeting Mycobacterium tuberculosis Cholesterol Metabolism” (Journal of Medicinal Chemistry, 2025) are described below.

Chains of the proteins cited; added tags and fusions are not shown. Lines headed by an entry give the natural chain unless they say otherwise; changes in a name come on top.
UniProt P9WPL5: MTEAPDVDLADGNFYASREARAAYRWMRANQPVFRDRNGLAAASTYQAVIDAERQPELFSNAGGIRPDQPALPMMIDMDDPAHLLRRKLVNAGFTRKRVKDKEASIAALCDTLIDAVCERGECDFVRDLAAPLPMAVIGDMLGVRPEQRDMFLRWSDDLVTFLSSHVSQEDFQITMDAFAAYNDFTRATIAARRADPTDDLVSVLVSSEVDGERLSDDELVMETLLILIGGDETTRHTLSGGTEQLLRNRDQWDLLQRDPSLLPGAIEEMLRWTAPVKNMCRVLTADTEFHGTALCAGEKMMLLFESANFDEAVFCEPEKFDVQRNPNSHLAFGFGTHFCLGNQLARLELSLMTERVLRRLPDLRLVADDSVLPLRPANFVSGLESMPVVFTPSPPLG

Series [1] deals with T1, CYP142 (Mycobacterium tuberculosis, UniProt P9WPL5).
For series [2], the target named is T1, CYP142. This is another data set of the same source.

As to `c1ccc(Cc2ccncc2)cc1` [1a], the “KD (μM) CYP142” value on CYP142 [1] amounted to 180 ± 6.6 µM. The “CYP142 Δλmax (nm)” value on CYP142 [2] is given as 2 nm.
